Experimental data: patent publication US20230338478A1 (University of Pennsylvania, published 2023)

What was measured:
[1] = target: T1, SARS-CoV-2 RBD 417N/484K/501Y (South Africa, B.1.351), purified recombinant (SARS-CoV-2); assay: SPR, decoy-Fc captured on protein A/G chip, RBD injected, 1:1 fit
T1 construct: range […]

[2] = target: T2, SARS-CoV-2 RBD 501Y (UK, B.1.1.7), purified recombinant (SARS-CoV-2); assay: as above
T2 construct: range […]

B1: ACE2-wt-Fc4 (Fc fusion)
chain: not shown
koff [1]: 0.00537 s⁻¹
kon [1]: 439000 M⁻¹ s⁻¹
Kd [2]: 3.3 nM
koff [2]: 0.00207 s⁻¹
kon [2]: 626000 M⁻¹ s⁻¹
